Patent US11672797B2, “Methods of treating keloids” (Hampton University, priority 2019, dated 2023)

Test system: Keloid fibroblast (KF) cells (CRL1762)
Assay: Example 1: Hoechst / propidium iodide staining of keloid fibroblasts after 16 h treatment
Type: cell-based, human
Conditions: 40 μM KC7F2, 25 uM IDF-11774, 25 uM PX-478, 10 mM 2-DG, compared to control untreated cells, FIGS. 4A-B

SMILES: Cl.Cl.N[C@@H](Cc1ccc([N+]([O-])(CCCl)CCCl)cc1)C(=O)O
- number of KF cells: did not work well
